Measurements as given in PubChem BioAssay AID602313 (National Center for Advancing Translational Sciences (NCATS), 2012).
The entries are a selection whose mix differs from that of the whole data set. Some salts or complexes appear as unconnected parts, following the source record. Active and inactive are the calls of the source. The call rests on the fitted dose curve; in most records, active means well fitted inhibition curve with a large enough effect; inconclusive means small, poorly fitted or top-dose-only effect; inactive means flat fitted curve, though single readings scatter.

Assay: qHTS for Inhibitors of Vif-A3F Interactions: qHTS; further: % of control where 0% means no effect; nearly all actives have a fitted effect of over 65% in size
Conditions: HeLa A3F-eYFP + Vif (tagged APOBEC3F with the HIV-1 protein that degrades it), YFP fluorescence increase; at 46.1 µM (top of the series)
Text: The recent discovery and characterization of host restriction factors, which provide a potent defense to invading retroviruses, has provided new targets for antiviral drug development. APOBEC3G (A3G) and APOBEC3F (A3F) are potent cytidine deaminases that block HIV-1 replication; HIV-1 expresses the Vif protein, which counteracts A3G and A3F by binding to them and inducing their proteasomal degradation. The Vif-A3G and Vif-A3F interactions provide two potential targets for development of small molecules which can interfere with the ability of Vif to degrade A3G or A3F. […] To identify inhibitors that can interfere with Vif mediated degradation of A3G and A3F, we have developed Hela cell lines that stably express A3G or A3F tagged with eYFP at the C-terminal end (A3G-eYFP or A3F-eYFP, respectively) and Vif. In the absence of an inhibitor, Vif induces degradation of A3G-eYFP and A3F-eYFP, and the cells are not fluorescent. In the presence of an inhibitor, it is expected that Vif will be unable to degrade A3G-eYFP and/or A3F-eYFP, resulting in an increase in yellow fluorescence. In this assays Vif A3F was screened against the Molecular Library Small Molecule Repository (MLSMR). NIH Chemical Genomics Center [NCGC] NIH Molecular Libraries Probe Centers Network [MLPCN] MLPCN Grant: MH093245 Assay Submitter (PI): Vinay Pathak, National Cancer Institute
5 uL of 700 cells/well of A3F-YFP cells are dispensed into black, clear bottom plates. The plates are incubated overnight at 37 deg C. 23 nL of compounds are added by pintool. The plates are incubated overnight at 37 deg C and then read on the TTP Acumen (Ex 488/ Em 500-530).

| Structure (SMILES) | activity, negative = active |
| --- | --- |
| N/C(=N\O)c1c(N)no[n+]1[O-] | inactive: -0.11% |
| CCOC(=O)N1CCC(Nc2ccc(C)cc2)CC1 | inactive: -13.9% |
| CCc1cc(C(=O)NCC2(N3CCCCC3)CCCCC2)sc1C | inactive: -0.924% |
| O=C(OC1CN2CCC1CC2)C1c2ccccc2C=Cc2ccccc21 (stereo not drawn) | inactive: -0.828% |
| O=C(O)c1cccc(Nc2c([N+](=O)[O-])cc([N+](=O)[O-])cc2[N+](=O)[O-])c1 | inactive: -13.2% |
| O=C(NCC1(N2CCOCC2)CCCCC1)c1cc(Br)ccc1Cl | inactive: -2.1% |
| COc1cc(C(=O)NCC2(N3CCOCC3)CCCCC2)cc(OC)c1C | inactive: -5.73% |
| COc1ccc(C(=O)NCC2(N3CCOCC3)CCCCC2)cc1OC | inactive: -7.11% |
| c1ccc(CN2CCC(Nc3ccccc3)CC2)cc1 | inactive: -4.03% |
| Cc1cc(N(CCCl)CCCl)ccc1C=O | inactive: 10.5% |
| O=C(NCC1(N2CCOCC2)CCCCC1)c1ccccc1 | inactive: 2.34% |
| CCCN1CCC(Nc2cc(OC)cc(OC)c2)CC1 | inactive: 8.59% |
| CN(C)C1(CNC(=O)c2cccc(C#N)c2)CCCCC1 | inactive: -10.2% |
| CC(C)(C)OC(=O)N1CCC(N(C(=O)c2ccccc2)c2ccc(Cl)cc2)CC1 | inactive: 1.86% |
| O=C(NCC1(N2CCOCC2)CCCCC1)c1ccc([N+](=O)[O-])cc1 | inactive: -4.28% |
| N#Cc1ccc(C(=O)NCC2(N3CCCCC3)CCCCC2)cc1 | inactive: 6.42% |
| O=C(NCC1(N2CCOCC2)CCCCC1)c1ccccc1[N+](=O)[O-] | inactive: -3.28% |
| CCOC(=O)C(CC)C1=NC(C)(C)Cc2ccccc21.O=[N+]([O-])c1cc([N+](=O)[O-])c(O)c([N+](=O)[O-])c1 (stereo not drawn) | inactive: -1.78% |
| Cc1ccccc1NC1(C#N)CCN(Cc2ccccc2)CC1 | inactive: 3.02% |
| CCN1CCC(Nc2cccc(F)c2)CC1 | inactive: 1.13% |
| O=C(NCC1(N2CCCCC2)CCCCC1)c1ccco1 | inactive: 3.14% |
| CC(C)(C)c1ccc(C(=O)NCC2(N3CCOCC3)CCCCC2)cc1 | inactive: 0.658% |
| CN(C)c1ccc(C(=O)NCC2(N3CCCCC3)CCCCC2)cc1 | inactive: -3.19% |
| Cn1c(=O)[nH]cc(N(CCCl)CCCl)c1=O | inactive: -8.98% |
| Cc1ccccc1C(=O)NCC1(N(C)C)CCCCC1 | inactive: 6.23% |

| Structure (SMILES) | activity, negative = active |
| --- | --- |
| COc1cc(OC)cc(C(=O)NCC2(N3CCCCC3)CCCCC2)c1 | inactive: -11.5% |
| CN(C)C1(CNC(=O)c2ccc(C(C)(C)C)cc2)CCCCC1 | inactive: 3.04% |
| CC(=O)N(c1ccccc1)C1CCNCC1 | inactive: -0.798% |
| Cc1ccc(NC2(C#N)CCN(Cc3ccccc3)CC2)cc1 | inactive: 0% |
| Cc1ccc(C(=O)NCC2(N3CCCCC3)CCCCC2)o1 | inactive: -5.08% |
| Fc1ccccc1NC1CCN(Cc2ccccc2)CC1 | inactive: -11.8% |
| Cc1ccc(Nc2c([N+](=O)[O-])cc([N+](=O)[O-])cc2[N+](=O)[O-])cc1 | inactive: 10.1% |
| CCC(CO)(C(=O)OC1CN2CCC1CC2)c1ccccc1 (stereo not drawn) | inactive: -5.92% |
| COc1cc(OC)cc(C(=O)NCC2(N3CCOCC3)CCCCC2)c1 | inactive: 7.52% |
| COc1cc(C(=O)NCC2(N3CCOCC3)CCCCC2)cc(OC)c1OC | inactive: -3.36% |
| COc1cccc(C(=O)N(c2cc(C)cc(C)c2)C2CCN(C(=O)OC(C)(C)C)CC2)c1 | inactive: 1.63% |
| CN1CCC(Nc2ccc(Cl)cc2)CC1 | inactive: 0.0532% |
| CCOc1ncccc1C(=O)NCC1(N2CCOCC2)CCCCC1 | inactive: 2.21% |
| CN1CCC(Nc2ccc(F)c(Cl)c2)CC1 | inactive: -0.0638% |
| CCCOc1ccc(C(=O)NCC2(N(C)C)CCCCC2)cc1 | inactive: -0.0746% |
| CC(C)(C)OC(=O)N1CCC(Nc2ccccc2)CC1 | inactive: 0.271% |
| O=C(O)C1(Nc2ccccc2)CCN(Cc2ccccc2)CC1 | inactive: -10.8% |
| O=C(NCC1(N2CCOCC2)CCCCC1)c1cc2ccccc2o1 | inactive: -22.6% |
| O=C(NCC1(N2CCCCC2)CCCCC1)c1ccc(Cl)nc1 | inactive: 0.57% |
| Cc1cc(C)cc(N(C(=O)c2ccccc2)C2CCN(C(=O)OC(C)(C)C)CC2)c1 | inactive: -6.27% |
| CCOC(=O)N1CCC(Nc2ccc(OC)cc2)CC1 | inactive: -6.52% |
| O=C(NCC1(N2CCCCC2)CCCCC1)c1ccc(Cl)s1 | inactive: -4.22% |
| N#CC1(Nc2ccccc2)CCN(Cc2ccccc2)CC1 | inactive: 13% |
| O=C(OC1CN2CCC1CC2)C1c2ccccc2Oc2ccccc21 (stereo not drawn) | inactive: -7.59% |
| COc1ccc(Cl)cc1C(=O)NCC1(N2CCOCC2)CCCCC1 | inactive: -6.48% |

| Structure (SMILES) | activity, negative = active |
| --- | --- |
| O=C1C(O)=C([N+](=O)[O-])C(=O)C(O)=C1[N+](=O)[O-] | inactive: -5.36% |
| O=C(NCC1(N2CCCCC2)CCCCC1)c1ccc(=O)[nH]c1 | inactive: 1.09% |
| O=C(NCC1(N2CCCCC2)CCCCC1)c1cccs1 | inactive: -19.7% |
| COc1ccc(C(=O)NCC2(N3CCCCC3)CCCCC2)cc1 | inactive: 1.03% |
| CC(C)(C)OC(=O)N1CCC(N(C(=O)c2ccccc2)c2ccc(F)cc2)CC1 | inactive: 1.45% |
| COc1ccc(C(=O)NCC2(N3CCCCC3)CCCCC2)c(OC)c1OC | inactive: -1.65% |
| CSc1ccccc1C(=O)NCC1(N2CCCCC2)CCCCC1 | inactive: 0.0167% |
| Cc1cccc(NC2(C#N)CCN(Cc3ccccc3)CC2)c1 | inactive: -3.78% |
| CCOC(=O)N1CCC(Nc2cccc(C)c2)CC1 | inactive: 2% |
| COc1cc(C(=O)NCC2(N(C)C)CCCCC2)ccc1OC(F)F | inactive: 7.41% |
| CCOc1ccc(C)cc1CN(CCCl)CCCl | inactive: 3.46% |
| O=C(NCC1(N2CCOCC2)CCCCC1)c1ccc(Cl)cc1 | inactive: -0.894% |
| O=C1CCN(Cc2ccccc2)CC1 | inactive: 3.33% |
| O=P1(N(CCCl)CCCl)SCCCS1 | inactive: 10.7% |
| CCCCOc1ccc(C(=O)NCC2(N3CCOCC3)CCCCC2)cc1 | inactive: -6.44% |
| O=C(NCC1(N2CCCCC2)CCCCC1)c1ccc(F)cc1 | inactive: -31.4% |
| COc1ccc(NC2CCN(CCc3ccccc3)CC2)c(OC)c1 | inactive: 1.16% |
| CCOC(=O)N1CCC(Nc2ccc(F)cc2)CC1 | inactive: -5.92% |
| COc1ccccc1C(=O)NCC1(N2CCOCC2)CCCCC1 | inactive: 4.34% |
| CCCOc1cccc(C(=O)NCC2(N3CCOCC3)CCCCC2)c1 | inactive: -6.24% |
| O=C(NCC1(N2CCCCC2)CCCCC1)c1cccc(C(F)(F)F)c1 | inactive: -2.52% |
| O=[N+]([O-])c1cc([N+](=O)[O-])c(NCC2CCS(=O)(=O)C2)c([N+](=O)[O-])c1 (stereo not drawn) | inactive: -8.97% |
| CN1CCN(CCOC(=O)C(O)(c2ccccc2)c2ccccc2)CC1 | inactive: 2.88% |
| CC(C)c1ccc(C(=O)NCC2(N3CCOCC3)CCCCC2)cc1 | inactive: 3.41% |
| COc1ccc(NC2CCN(C(=O)OC(C)(C)C)CC2)cc1 | inactive: 0.817% |

| Structure (SMILES) | activity, negative = active |
| --- | --- |
| COc1cc(C(=O)NCC2(N3CCCCC3)CCCCC2)ccc1OC(F)F | inactive: -5.21% |
| O=C(NCC1(N2CCOCC2)CCCCC1)c1cc(=O)[nH]c2ccccc12 | inactive: 1.49% |
| O=C(NCC1(N2CCCCC2)CCCCC1)c1ccc(OC(F)F)cc1 | inactive: -9.23% |
| O=C(NCC1(N2CCCCC2)CCCCC1)c1cccc([N+](=O)[O-])c1 | inactive: 0.991% |
| CCOc1ccc(C(=O)NCC2(N3CCOCC3)CCCCC2)cc1 | inactive: 6.75% |
| CSc1ccc(C(=O)NCC2(N3CCOCC3)CCCCC2)cc1 | inactive: -0.103% |
| CCN1CCC(Nc2ccc(Cl)cc2)CC1 | inactive: -2.55% |
| N#CC1(Nc2ccccc2)CCN(CCc2ccccc2)CC1 | inactive: 1.66% |
| CN1CCC(Nc2cccc(F)c2)CC1 | inactive: -0.979% |
| COc1ccc2c(c1O)-c1c(O)c(OC)cc3c1[C@H](C2)[N+](C)(C)CC3.O=[N+]([O-])c1cc([N+](=O)[O-])c([O-])c([N+](=O)[O-])c1[O-] | inactive: 4.48% |
| O=C(NCC1(N2CCCCC2)CCCCC1)c1cncc(Br)c1 | inactive: 2.37% |
| O=C(OC1CN2CCC1CC2)c1ccc([N+](=O)[O-])cc1 (stereo not drawn) | inactive: 22.3% |
| CCCCOc1ccccc1C(=O)NCC1(N2CCOCC2)CCCCC1 | inactive: -9.55% |
| Cc1ccc(C(=O)NCC2(N(C)C)CCCCC2)o1 | inactive: -0.597% |
| O=C(NCC1(N2CCOCC2)CCCCC1)c1ccccc1Br | inactive: 3.69% |
| CCCOc1ccc(C(=O)NCC2(N(C)C)CCCCC2)cc1OC | inactive: 5.48% |
| O=[N+]([O-])c1cc([N+](=O)[O-])c(Nc2ccc(Cl)cc2)c([N+](=O)[O-])c1 | inactive: 0.97% |
| COc1ccc(CN(CCCl)CCCl)cc1Cl | inactive: -8.5% |
| O=[N+]([O-])c1cc([N+](=O)[O-])c(OC2CCCCC2O)c([N+](=O)[O-])c1 (stereo not drawn) | inactive: 1.65% |
| CN(C)c1cccc(C(=O)NCC2(N3CCCCC3)CCCCC2)c1 | inactive: 15.3% |
| CC(C)c1ccc(NC2CCN(C(=O)OC(C)(C)C)CC2)cc1 | inactive: 15.2% |
| COc1cc(OC)c(C(=O)NCC2(N(C)C)CCCCC2)cc1OC | inactive: 1.21% |
| O=C(NCC1(N2CCOCC2)CCCCC1)c1cc(F)c(F)cc1Cl | inactive: -11% |
